A mixed list of measured activities; the numbers were collected in NIAID ChemDB.

All rows: tests in culture; agent: HIV-1; cell line: CEM + CEM-SS; measure: EC50

Blank or dashed fields: not listed here. Neighbouring rows are from separate reports. ECn: concentration that inhibits the pathogen or its effect by n%.

structure,strain,changes,read by,value
Cc1cn([C@H]2C[C@H](N=[N+]=[N-])[C@@H](CO)O2)c(=O)[nH]c1=O,LAI,-,RT activity,0.012 µM
Nc1ncnc2c1ncn2[C@H]1CC[C@@H](CO)O1,LAI,-,RT activity,0.54 µM
CCCc1cc(=O)oc2c3c(c4c(c12)OC(C)(C)C=C4)O[C@H](C)[C@@H](C)[C@@H]3O,RF,-,cytopathic effect / XTT,0.27 µM
CCCCCCCCCCCCCCCCCC(=O)NCC(COP(=O)(O)O)OCC,IIIB,-,plaque count,>100 µM
CCCc1cc(=O)oc2c3c(c4c(c12)OC(C)(C)C=C4)O[C@H](C)[C@@H](C)[C@@H]3OC,RF,-,XTT,>10 µM
CC(C)(C)NC(=O)[C@@H]1CN(Cc2cccnc2)CCN1C[C@@H](O)C[C@@H](Cc1ccccc1)C(=O)N[C@H]1c2ccccc2C[C@H]1OC(=O)CCCCOc1ccc(C[C@H](N)C(=O)O)cc1,LAI,-,RT activity,0.009 µM
CCCc1cc(=O)oc2c3c(c4c(c12)OC(C)(C)C=C4)O[C@H](CC)[C@H](C)[C@@H]3O,IIIB,-,cytopathic effect / MTT,>20.9 µM
Cc1occc1C(=S)Nc1ccc(Cl)c(/C=N/OC(C)(C)C)c1,TIBO R82150-resistant (RT A98G V108I),RT-A98G V108I,cytopathic effect / XTT,1.1 µM
CC(C)(C)NC(=O)[C@@H]1C[C@@H]2CCCC[C@@H]2CN1C[C@@H](OC(=O)CCCCO[C@@H]1[C@@H](O)[C@@H](O)O[C@H](CO)[C@H]1O)[C@H](Cc1ccccc1)NC(=O)[C@H](CC(N)=O)NC(=O)c1ccc2ccccc2n1,LAI,-,RT activity,<0.011 µM
CC(=O)SCCOP(=O)(OCCSC(C)=O)OC[C@H]1O[C@@H](n2cc(C)c(=O)[nH]c2=O)C[C@@H]1N=[N+]=[N-],LAI,-,RT activity,0.0048 µM
O=C(CCNC(=O)C(=O)/C=C(\O)c1cccn1Cc1ccc(F)cc1)OC[C@@H]1CC[C@H](n2ccc(=O)[nH]c2=O)O1,LAI,-,RT activity,>10 µM
CC(C)=CCC[C@]1(C)C=Cc2c(ccc3c2C(=O)C(O)=C(C2=C(C4=C(O)C(=O)c5c(ccc6c5C=C[C@@](C)(CCC=C(C)C)O6)C4=O)C(=O)c4c(ccc5c4C=C[C@@](C)(CCC=C(C)C)O5)C2=O)C3=O)O1,NL4-3,-,cytopathic effect,<20 µM
C/C=C/CSc1cc(NC(=S)c2ccsc2C)ccc1Cl,Pyridinone-resistant (RT Y181C K103N),RT-K103N Y181C,cytopathic effect / XTT,>2 µM
Cc1c(OC(=O)CCCCO[C@H]2O[C@H](CO)[C@@H](O)[C@H](O)[C@@H]2O)cccc1C(=O)N[C@@H](CSc1ccccc1)[C@H](O)CN1C[C@H]2CCCC[C@H]2C[C@H]1C(=O)NC(C)(C)C,LAI,-,RT activity,0.339 µM
Cc1cn([C@H]2C=C[C@@H](COC(=O)CCNC(=O)C(=O)/C=C(\O)c3cc(OCc4ccccc4)cc(OCc4ccccc4)c3)O2)c(=O)[nH]c1=O,LAI,-,RT activity,5.6 µM
CCCc1cc(=O)oc2c(C(=O)C(C)(C)C(C)O)c(O)c3c(c12)OC(C)(C)C=C3,IIIB,-,cytopathic effect / MTT,>37 µM
Cc1cn([C@H]2C=C[C@@H](COC(=O)CCNC(=O)C(=O)/C=C(\O)c3cccn3Cc3ccc(F)cc3)O2)c(=O)[nH]c1=O,LAI,-,RT activity,5 µM
C[C@H]1[C@H](OC(=O)N[C@@H](CSc2ccccc2)[C@H](O)CN2C[C@H]3CCS[C@H]3C[C@H]2C(=O)NC(C)(C)C)CCS1(=O)=O,HXB2,-,cytopathic effect / XTT,<0.044 µM
Cc1cn([C@H]2C[C@H](N=[N+]=[N-])[C@@H](CO)O2)c(=O)[nH]c1=O,RF,-,cytopathic effect / XTT,0.002 µM
CC(C)[C@H]1[C@@H](OC(=O)N[C@@H](CSc2ccccc2)[C@H](O)CN2C[C@H]3CCS[C@H]3C[C@H]2C(=O)NC(C)(C)C)CCS1(=O)=O,HXB2,-,cytopathic effect / XTT,<0.089 µM
CC(=O)SCCOP(=O)(OCCSC(C)=O)OC[C@@H]1CC[C@H](n2cnc3c(N)ncnc32)O1,IIIB,-,cytopathic effect,0.00056 µM
CCCc1cc(=O)oc2c3c(c4c(c12)OC(C)(C)C=C4)O[C@@H](C)[C@H](C)C3=O,IIIB,-,cytopathic effect / MTT,2.47 µM
CC(C)[C@@H]1[C@H](OC(=O)N[C@@H](Cc2ccccc2)[C@H](O)CN2C[C@H]3CCS[C@H]3C[C@H]2C(=O)NC(C)(C)C)CCS1(=O)=O,HXB2,-,cytopathic effect / XTT,<0.038 µM
Cc1cn([C@H]2C[C@H](N=[N+]=[N-])[C@@H](CO)O2)c(=O)[nH]c1=O,205,-,cytopathic effect / XTT,0.016 µM
Fc1cccc(F)c1C1SCc2nc3ccccc3n21,IIIB,RT-Y181C,cytopathic effect / XTT,>69 µM
CCCc1cc(=O)oc2c3c(c4c(c12)OC(C)(C)C=C4)O[C@@H](C)[C@H](C)[C@@H]3O,RF,-,cytopathic effect / XTT,0.2 µM
C[C@@H]1[C@@H](OC(=O)N[C@@H](CSc2ccccc2)[C@H](O)CN2C[C@H]3CCS[C@H]3C[C@H]2C(=O)NC(C)(C)C)CCS1(=O)=O,HXB2,-,cytopathic effect / XTT,<0.045 µM
CC(C)(C)NC(=O)[C@@H]1C[C@@H]2CCCC[C@@H]2CN1C[C@@H](O)[C@H](Cc1ccccc1)NC(=O)[C@H](CC(N)=O)NC(=O)c1ccc2ccccc2n1,IIIB,-,-,<0.022 µM
CC(=O)SCCOP(=O)(OCCSC(C)=O)OC[C@@H]1CC[C@H](n2cnc3c(=O)[nH]cnc32)O1,IIIB,-,cytopathic effect,1.2 µM
CCc1c(Sc2ccccn2)n(COCc2ccccc2)c(=O)[nH]c1=O,IIIB,RT-L100I,cytopathic effect / XTT,0.3 µM
CC(=O)SCCOP(=O)(OCCSC(C)=O)OC[C@@H]1CC[C@H](n2cnc3c(N)ncnc32)O1,LAI,-,RT activity,0.00056 µM
CC(C)(C)NC(=O)[C@@H]1CN(Cc2cccnc2)CCN1C[C@H](C[C@@H](Cc1ccccc1)C(=O)N[C@H]1c2ccccc2C[C@H]1OC(=O)CCCCO[C@H]1O[C@H](CO)[C@@H](O)[C@H](O)[C@@H]1O)OC(=O)CCCCO[C@H]1O[C@H](CO)[C@@H](O)[C@H](O)[C@@H]1O,LAI,-,RT activity,0.44 µM
Cc1ccnc2c1NC(=O)c1cccnc1N2C1CC1,NL4-3,RT-V106I,cytopathic effect / XTT,>2 µM
O=c1[nH]cnc2c1ncn2[C@H]1CC[C@@H](CO)O1,LAI,-,RT activity,4.3 µM
CC(C)[C@H]1[C@@H](OC(=O)N[C@@H](Cc2ccccc2)[C@H](O)CN2C[C@H]3CCS[C@H]3C[C@H]2C(=O)NC(C)(C)C)CCS1(=O)=O,HXB2,-,cytopathic effect / XTT,<0.077 µM
O=C(O)C(=O)CC(=O)c1cc(OCc2ccccc2)cc(OCc2ccccc2)c1,LAI,-,RT activity,0.43 µM
CC(C)(C)NC(=O)[C@@H]1CN(Cc2cccnc2)CCN1C[C@@H](O)C[C@@H](Cc1ccccc1)C(=O)N[C@H]1c2ccccc2C[C@H]1O,LAI,-,RT activity,≤0.01 µM
CCCc1cc(=O)oc2c3c(c4c(c12)OC(C)(C)C=C4)O[C@@H](C)C(C)=C3,IIIB,-,cytopathic effect / MTT,>24.7 µM
CC(C)[C@@H]1[C@H](OC(=O)N[C@@H](CSc2ccccc2)[C@H](O)CN2C[C@H]3CCS[C@H]3C[C@H]2C(=O)NC(C)(C)C)CCS1(=O)=O,HXB2,-,cytopathic effect / XTT,<0.009 µM
CCCc1cc(=O)oc2c3c(c4c(c12)OC(C)(C)C=C4)OC(C)(C)[C@H](C)C3=O,IIIB,-,cytopathic effect / MTT,>21 µM
CC(C)(C)NC(=O)[C@@H]1C[C@@H]2CCCC[C@@H]2CN1C[C@@H](O)[C@H](Cc1ccccc1)NC(=O)[C@H](CC(N)=O)NC(=O)c1ccc2ccccc2n1,LAI,-,RT activity,0.009 µM
Cc1cn([C@H]2C[C@H](N=[N+]=[N-])[C@@H](CO)O2)c(=O)[nH]c1=O,IIIB,-,cytopathic effect / XTT,0.01 µM
CCCc1cc(=O)oc2c3c(c4c(c12)OC(C)(C)C=C4)O[C@H](CC)[C@@H](C)C3=O,IIIB,-,cytopathic effect / MTT,>6.8 µM

The last 5 rows once more:

| structure | strain | changes | read by | value |
|---|---|---|---|---|
| CC(C)[C@@H]1[C@H](OC(=O)N[C@@H](CSc2ccccc2)[C@H](O)CN2C[C@H]3CCS[C@H]3C[C@H]2C(=O)NC(C)(C)C)CCS1(=O)=O | HXB2 | - | cytopathic effect / XTT | <0.009 µM |
| CCCc1cc(=O)oc2c3c(c4c(c12)OC(C)(C)C=C4)OC(C)(C)[C@H](C)C3=O | IIIB | - | cytopathic effect / MTT | >21 µM |
| CC(C)(C)NC(=O)[C@@H]1C[C@@H]2CCCC[C@@H]2CN1C[C@@H](O)[C@H](Cc1ccccc1)NC(=O)[C@H](CC(N)=O)NC(=O)c1ccc2ccccc2n1 | LAI | - | RT activity | 0.009 µM |
| Cc1cn([C@H]2C[C@H](N=[N+]=[N-])[C@@H](CO)O2)c(=O)[nH]c1=O | IIIB | - | cytopathic effect / XTT | 0.01 µM |
| CCCc1cc(=O)oc2c3c(c4c(c12)OC(C)(C)C=C4)O[C@H](CC)[C@@H](C)C3=O | IIIB | - | cytopathic effect / MTT | >6.8 µM |